According to article PMC3426546, “A Unique Bivalent Binding and Inhibition Mechanism by the Yatapoxvirus Interleukin 18 Binding Protein” (2012):

Each substance was assayed against ECTV-IL18BP expressed and secreted from mammalian cells, biotinylated (ectromelia virus) (assay: SPR).

| Substance | Kd | koff | kon |
| --- | --- | --- | --- |
| IL18 P57R,S105R (ligand) | 4 nM | 0.00039 s⁻¹ | 90000 M⁻¹ s⁻¹ |
| IL18 S105R (ligand) | 0.1 nM | 2e-05 s⁻¹ | 350000 M⁻¹ s⁻¹ |
| IL18 P57R (ligand) | 25 nM | 0.0008 s⁻¹ | 40000 M⁻¹ s⁻¹ |
